A mixed list of measured activities; the numbers were collected in NIAID ChemDB.

Common to all: tests in culture; organism: HIV-1; method: RT activity; measure: EC50

Two numbers with a dash give a range or band.

| structure | setting | changes | strain or isolate | cells | result |
|---|---|---|---|---|---|
| Cc1nc(CCCCCCC(=O)c2ccccc2)n2nc(Cl)ccc12 | - | - | LAI | CEM + CEM-SS | 0.3 µM |
| CC(C)C1=C2[C@H]3CC[C@@H]4[C@@]5(C)CC[C@H](OC(=O)CC(C)(C)C(=O)O)C(C)(C)[C@@H]5CC[C@@]4(C)[C@]3(C)CC[C@@]2(NC(=O)NCc2nccn2C)CC1=O | 30% human serum | - | IIIB | MT-2 | <0.199 µM |
| C[C@@H]1CCO[C@H]2Cn3cc(C(=O)NCc4ccc(F)cc4F)c(=O)c(O)c3C(=O)N12 | - | G140S/Q148H | NL4-3 | CBMC | 0.0081 µM |
| O=c1[nH]cnc2c1ncn2[C@@H]1O[C@H](CO)C[C@@H]1F | - | RT-V75I | IIIB BCH-13520-resistant (RT V75I) | MT-2 | 0.93 µM |
| CC(C)C1=C2C3CCC4[C@@]5(C)CC[C@H](OC(=O)CC(C)(C)C(=O)O)C(C)(C)C5CC[C@@]4(C)[C@]3(C)CC[C@@]2(NC(=O)N2CCC(NC(=O)OC(C)(C)C)CC2)CC1=O | 30% human serum | - | IIIB | MT-2 | <0.199 µM |
| Nc1nc(NC2CC2)c2ncn([C@H]3CO[C@@H](CO)O3)c2n1 | - | - | RF | PBMC | 0.3 µM |
| Cc1nc(CCCCCCC(=O)c2ccccc2)n2nc(NCCCCCCCCCCNCc3cn([C@H]4C=C[C@@H](CO)O4)c(=O)[nH]c3=O)ccc12 | - | - | LAI | CEM + CEM-SS | 0.025 µM |
| CC(C)C1=C2C3CCC4[C@@]5(C)CC[C@H](OC(=O)CC(C)(C)C(=O)O)C(C)(C)C5CC[C@@]4(C)[C@]3(C)CC[C@@]2(NC(=O)NCC2CC2)CC1=O | 30% human serum | - | IIIB | MT-2 | 0.2–0.999 µM |
| Cc1nc(CCCCCCC(=O)c2ccccc2)n2nc(NCCCCCCN)ccc12 | - | - | IIIB | PBMC | >10 µM |
| CC(C)C1=C2C3CCC4[C@@]5(C)CC[C@H](OC(=O)[C@H]6CC[C@@](C)(C(=O)O)C6(C)C)C(C)(C)C5CC[C@@]4(C)[C@]3(C)CC[C@@]2(N)CC1=O | 30% human serum | - | IIIB | MT-2 | <0.199 µM |
| COc1cc(-c2ccc(N=Nc3ccc4c(S(=O)(=O)O)cc(S(=O)(=O)O)c(N)c4c3O)c(OC)c2)ccc1N=Nc1ccc2c(S(=O)(=O)O)cc(S(=O)(=O)O)c(N)c2c1O | - | - | G | CEM + CEM-SS | 1.9 µM |
| CC(C)C1=C2C3CCC4[C@@]5(C)CC[C@H](OC(=O)CC(C)(C)C(=O)O)C(C)(C)C5CC[C@@]4(C)[C@]3(C)CC[C@@]2(NC(=O)OCc2ccccc2)CC1=O | 30% human serum | - | IIIB | MT-2 | <0.199 µM |
| CCOCc1cn([C@H]2C=C[C@@H](CO)O2)c(=O)[nH]c1=O | - | - | IIIB | MT-4 | 6 µM |
| O=C(CNC(=O)COc1ccccc1)NCc1ccc(C(=O)N2CCCCC2)cc1 | - | - | 93BR020 | PBMC | 17.3 µM |
| Cc1cn([C@H]2C=C[C@@H](CO)O2)c(=O)[nH]c1=O | - | - | LAI | CEM + CEM-SS | 0.059 µM |
| CC(C)C1=C2C3CC[C@@H]4[C@@]5(C)CC[C@H](OC(=O)CC(C)(C)C(=O)O)C(C)(C)[C@@H]5CC[C@@]4(C)[C@]3(C)CC[C@@]2(NC(=O)Nc2ccccn2)CC1=O | 30% human serum | - | IIIB | MT-2 | <0.199 µM |
| Cc1nc(CCCCCCC(=O)c2ccccc2)n2nc(NCCCCCCCCCCN)ccc12 | - | - | IIIB | MT-4 | >10 µM |
| COc1ccnc2[nH]cc(C(=O)C(=O)N3CCN(C(=O)c4ccccc4)C[C@H]3C)c12 | - | GP120-V68A | LAI(GP120-V68A) Recombinant | MT-2 | <0.015 µM |

Rows are shuffled and stem from different studies. ECn is the concentration giving n% inhibition of infection, replication or growth. Blank or dashed fields: not listed here.